Assay results as given in patent publication US5633231A, “Valine-containing pseudopeptides with antiviral activity” (Bayer Aktiengesellschaft, priority 1993, dated 1997).

Columns and labels:
[1] = biological target: HIV protease (HIV-1) (Human immunodeficiency virus type 1 group M subtype B, UniProt P04585); test: HIV-specific protease enzyme test, cleavage of synthetic gag peptide analysed by RP-HPLC; details: read-out: IC50 (RP-HPLC) (μM) HIV-1, purified HIV protease, synthetic peptide substrate
Protocol: This is verified using a HIV-specific protease enzyme test.
The results for the examples listed below were obtained using the HIV test system described in the following literature reference [cf. Hansen, J., Billich, S., Schulze, T., Sukrow, S. and M olling, K. (1988), EMBO Journal, Vol. 7, No. 6, pp. 1785-1791]: purified HIV protease was incubated together with synthetic peptide which imitates a cleavage site in the gag precursor protein and represents an in-vivo cleavage site for protease. The resulting cleavage products from the synthetic peptide were analysed by reverse phase high performance liquid chromatography (RP-HPLC). The IC50 values which are given refer to the substance concentration which elicits 50% inhibition of the protease activity under the above-listed test conditions.

[2] = system: HCMV (Davis); test: Anti-HCMV (Davis) activity: inhibition of the cytopathogenic effect in HELF cell cultures, 96-well screening test; format: cell-based, human cytomegalovirus; details: read-out: IC50 (μM) (HCMV) = concentration which elicits 50% inhibition of the CPE; HCMV (Davis)-infected HELF cells, 6 days, neutral red staining

Row | Compound | IC50 [1] [µM] | IC50 [2] [µM] | IC50 ([1]; tested form: 2HCl) [µM]
1 | Cc1ccc(S(=O)(=O)N=C(N)NCCC[C@H](NC(=O)COc2ccc(F)cc2F)C(=O)N[C@H](C(=O)NC(C=O)Cc2ccccc2)C(C)C)cc1 (some centres unmarked) | 0.22 | 0.041 | 
2 | Cc1ccc(S(=O)(=O)N=C(N)NCCC[C@H](NC(=O)Cc2ccc(-n3ccnn3)cc2)C(=O)N[C@H](C(=O)NC(C=O)Cc2ccccc2)C(C)C)cc1 (some centres unmarked) | 0.19 |  | 
3 | Cc1ccc(S(=O)(=O)N=C(N)NCCC[C@H](NC(=O)c2cnccn2)C(=O)N[C@H](C(=O)N[C@H](CO)Cc2ccccc2)C(C)C)cc1 | 18 |  | 
4 | Cc1ccc(S(=O)(=O)N=C(N)NCCC[C@H](NC(=O)c2cnccn2)C(=O)N[C@H](C(=O)NC(C=O)Cc2ccccc2)C(C)C)cc1 (some centres unmarked) |  |  | 1.1
5 | Cc1ccc(S(=O)(=O)N=C(N)NCCC[C@H](NS(=O)(=O)c2ccc(C)cc2)C(=O)N[C@H](C(=O)NC(C=O)Cc2ccccc2)C(C)C)cc1 (some centres unmarked) | 30 |  | 
6 | Cc1ccc(S(=O)(=O)N=C(N)NCCC[C@H](NC(=O)OCc2c(Cl)cccc2Cl)C(=O)N[C@H](C(=O)NC(C=O)Cc2ccccc2)C(C)C)cc1 (some centres unmarked) | 7.3 | 0.0011 | 

Where two headings read alike, the source gives them in different places.
